Source: PubChem BioAssay AID1259414 (Drosophila RNAi Screening Center, 2018)

- Aim: 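Genome-wide screen for host control of endosymbiont load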 (primary screen)
- Cell system: Drosophila JW18 cells infected with Wolbachia
- Reagent: long dsRNA against Drosophila genes, 0.25 µg dsRNA per well of a 384-well plate
- Time to read-out: 5 days
- Treatment: cells persistently infected with Wolbachia before knock-down; no added drug
- Read-out: 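Imaged fluorescence in situ signal for Wolbachia 23S rRNA per DAPI-counted host cell, given as a robust z-score within each plate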
- Scale: Wolbachia per cell robust z: higher = more Wolbachia per host cell than the plate typical
- Rule for the call: 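Hit when robust z is 1.5 or more, or -1.5 or less, in at least two of three replicates; excludes dsRNAs with several or no targets, genes not expressed in JW18 and well A1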
The deposit covers about 24,000 reagents; this is a random part of those with a known target gene and a result. In the full data, about 1,210 (5%) are marked active. 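Inactive calls also include excluded dsRNAs with several or no targets, genes unexpressed in JW18, and well A1, regardless of score.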 Reagents against one gene are numbered here. Names joined by + are all predicted targets of the reagent.

CG32548 #1 → Wolbachia per cell robust z, rep 1 = 0.229; Wolbachia per cell robust z, rep 2 = 0.597; Wolbachia per cell robust z, rep 3 = 1.11; call = inactive
CG32548 #2 → Wolbachia per cell robust z, rep 1 = 0.114; Wolbachia per cell robust z, rep 2 = -3.75; Wolbachia per cell robust z, rep 3 = -0.0103; call = inactive
CG32548 #3 → Wolbachia per cell robust z, rep 1 = -0.547; Wolbachia per cell robust z, rep 2 = -0.094; Wolbachia per cell robust z, rep 3 = -0.305; call = inactive
nbs #1 → Wolbachia per cell robust z, rep 1 = 1.19; Wolbachia per cell robust z, rep 2 = 0.587; Wolbachia per cell robust z, rep 3 = -2.31; call = inactive
nbs #2 → Wolbachia per cell robust z, rep 1 = -0.306; Wolbachia per cell robust z, rep 2 = -0.845; Wolbachia per cell robust z, rep 3 = 0.209; call = inactive
gammaTry + CG30031 + CG30025 + 1 more #1 → Wolbachia per cell robust z, rep 1 = 0.296; Wolbachia per cell robust z, rep 2 = 1.08; Wolbachia per cell robust z, rep 3 = 0.755; call = inactive
gammaTry + CG30031 + CG30025 + 1 more #2 → Wolbachia per cell robust z, rep 1 = 1.06; Wolbachia per cell robust z, rep 2 = 2.34; Wolbachia per cell robust z, rep 3 = 0.823; call = inactive
CG15322 #1 → Wolbachia per cell robust z, rep 1 = 1.43; Wolbachia per cell robust z, rep 2 = 0.366; Wolbachia per cell robust z, rep 3 = 0.744; call = inactive
CG15322 #2 → Wolbachia per cell robust z, rep 1 = -0.82; Wolbachia per cell robust z, rep 2 = -1.29; Wolbachia per cell robust z, rep 3 = -3.73; call = inactive
CG13919 → Wolbachia per cell robust z, rep 1 = 1.28; Wolbachia per cell robust z, rep 2 = -0.0195; Wolbachia per cell robust z, rep 3 = -1.36; call = inactive
Syx8 (Syntaxin 8) #1 → Wolbachia per cell robust z, rep 1 = 0.138; Wolbachia per cell robust z, rep 2 = 0.396; Wolbachia per cell robust z, rep 3 = 1.07; call = inactive
Syx8 (Syntaxin 8) #2 → Wolbachia per cell robust z, rep 1 = -0.0134; Wolbachia per cell robust z, rep 2 = -1.82; Wolbachia per cell robust z, rep 3 = -0.534; call = inactive
Syx8 (Syntaxin 8) #3 → Wolbachia per cell robust z, rep 1 = 0.43; Wolbachia per cell robust z, rep 2 = -0.38; Wolbachia per cell robust z, rep 3 = -1.17; call = inactive
Rlb1 #1 → Wolbachia per cell robust z, rep 1 = -3.29; Wolbachia per cell robust z, rep 2 = 0.792; Wolbachia per cell robust z, rep 3 = 0.435; call = inactive
Rlb1 #2 → Wolbachia per cell robust z, rep 1 = 0.625; Wolbachia per cell robust z, rep 2 = -0.125; Wolbachia per cell robust z, rep 3 = 0.746; call = inactive
CG30280 → Wolbachia per cell robust z, rep 1 = 0.157; Wolbachia per cell robust z, rep 2 = -0.732; Wolbachia per cell robust z, rep 3 = 0.311; call = inactive
l(3)72Dp (lethal (3) 72Dp) → Wolbachia per cell robust z, rep 1 = 0.287; Wolbachia per cell robust z, rep 2 = 1.47; Wolbachia per cell robust z, rep 3 = 0.716; call = inactive
psh (persephone) #1 → Wolbachia per cell robust z, rep 1 = 0.257; Wolbachia per cell robust z, rep 2 = 0.566; Wolbachia per cell robust z, rep 3 = -0.627; call = inactive
psh (persephone) #2 → Wolbachia per cell robust z, rep 1 = -0.342; Wolbachia per cell robust z, rep 2 = -1.06; Wolbachia per cell robust z, rep 3 = -1.8; call = inactive
olf186-M → Wolbachia per cell robust z, rep 1 = -0.0091; Wolbachia per cell robust z, rep 2 = -0.603; Wolbachia per cell robust z, rep 3 = -0.286; call = inactive
CG10154 → Wolbachia per cell robust z, rep 1 = -1.06; Wolbachia per cell robust z, rep 2 = 0.952; Wolbachia per cell robust z, rep 3 = 0.979; call = inactive
CG13361 #1 → Wolbachia per cell robust z, rep 1 = -0.631; Wolbachia per cell robust z, rep 2 = 0.276; Wolbachia per cell robust z, rep 3 = 0.428; call = inactive
CG13361 #2 → Wolbachia per cell robust z, rep 1 = -1.41; Wolbachia per cell robust z, rep 2 = 0.924; Wolbachia per cell robust z, rep 3 = 0.0553; call = inactive
CG8237 #1 → Wolbachia per cell robust z, rep 1 = 0.379; Wolbachia per cell robust z, rep 2 = -0.127; Wolbachia per cell robust z, rep 3 = -0.907; call = inactive
CG8237 #2 → Wolbachia per cell robust z, rep 1 = -0.0739; Wolbachia per cell robust z, rep 2 = -1.21; Wolbachia per cell robust z, rep 3 = -0.25; call = inactive
